Measured values: PMC2790717 (Biochemical and Biophysical Research Communications, 2007)

Biological target: HIV-1 gp41 fusion peptide N36 (N-terminal heptad repeat peptide) (HIV-1, N-terminal acetyl (Ac-); C-terminal amide (-NH2))
Experiment: native gel or EMSA

B1: HIV-1 gp41 fusion peptide C34 (C-terminal heptad repeat peptide) (peptide)
peptide: not shown
modifications: N-terminal acetyl (Ac-); C-terminal amide (-NH2)
**Q.** Does B1 bind?
**A.** binds
